Results of unrelated studies side by side (data: NIAID ChemDB).

All rows: tests on isolated targets; species: HIV-1; protein: Protease; read-out: inhibition

Inhibition is in % at the dose shown (toxicity tests: loss of growth or viability). Conditions beyond the fields shown may differ between rows. An empty or dashed field is not shown.

structure	method	dose	value
CC(C)CCNC(=O)[C@@H]1O[C@@H]2CN(Cc3ccccc3)C(=O)[C@H]1O2	FRET	10 µM	0%
CC(C)(C)NC(=O)[C@H]1N(C(=O)[C@@H](O)[C@H](Cc2ccccc2)NC(=O)[C@H](CC(N)=O)NC(=O)OCOc2cccc3ccccc23)CSC1(C)C	-	0.05 µM	98.4%
CCOC(=O)[C@@]1(C)CC[C@]2(C)CC[C@]3(C)C(=CC(=O)[C@@H]4[C@@]5(C)CC/C(=N\OCc6ccc(C(=O)OC)o6)C(C)(C)[C@@H]5CC[C@]43C)[C@@H]2C1	substrate cleavage / fluorescence	1000 µg/mL	70.5%
COC(=O)[C@H](CC(C)C)N1C[C@@H]2O[C@H](C(=O)N3CCCCC3)[C@@H](O2)C1=O	FRET	10 µM	0%
CC(C)COC(=O)[C@H](CC(C)C)NC(=O)N[C@@H](CC(C)C)C(=O)OCC(C)C	absorbance	10 µM	41%
CCOC(=O)[C@@]1(C)CC[C@]2(C)CC[C@]3(C)C(=CC(=O)[C@@H]4[C@@]5(C)CC/C(=N\OCc6ccc(C#N)cc6)C(C)(C)[C@@H]5CC[C@]43C)[C@@H]2C1	substrate cleavage / fluorescence	1000 µg/mL	23.4%
CC(C)COC(=O)[C@H](Cc1c[nH]c2ccccc12)NC(=O)C(=O)N[C@@H](Cc1c[nH]c2ccccc12)C(=O)OCC(C)C	absorbance	10 µM	<10%
CCC1(Cc2ccccc2)OC(=O)C(C(c2ccccc2)C2CC2)=C1O	fluorescence	10 µM	100%
CC[C@@H](C)[C@H](NC(=O)C1CCCN1C(=O)[C@@H](O)[C@H](Cc1ccccc1)NC(=O)[C@H](CCS(C)(=O)=O)NC(=O)CCc1ccccc1)C(=O)N[C@H](C(N)=O)C(C)C	-	0.05 µM	3.2%
CCC1(CCc2ccccc2)OC(=O)C(C(c2ccccc2)C2CC2)=C1O	fluorescence	3.3 µM	100%
CCOC(=O)[C@@]1(C)CC[C@]2(C)CC[C@]3(C)C(=CC(=O)[C@@H]4[C@@]5(C)CC/C(=N\OCc6c(C)noc6C)C(C)(C)[C@@H]5CC[C@]43C)[C@@H]2C1	substrate cleavage / fluorescence	1000 µg/mL	17.1%
CC(C)[C@H](NC(=O)/C=C/C(=O)N[C@H](C(=O)OCc1ccccc1)C(C)C)C(=O)OCc1ccccc1	absorbance	10 µM	<10%
CSC[C@H](NC(=O)COc1cccc2ccccc12)C(=O)N[C@@H](Cc1ccccc1)[C@H](O)C(=O)N1CCC[C@H]1C(=O)NC(C)(C)C	-	0.05 µM	93.1%
CCOC(=O)[C@@]1(C)CC[C@]2(C)CC[C@]3(C)C(=CC(=O)[C@@H]4[C@@]5(C)CC/C(=N\OCc6ccc(-c7ccccc7)cc6)C(C)(C)[C@@H]5CC[C@]43C)[C@@H]2C1	substrate cleavage / fluorescence	1000 µg/mL	20.3%
CC(C)COC(=O)[C@H](Cc1ccc(O)cc1)NC(=O)C(=O)N[C@@H](Cc1ccc(O)cc1)C(=O)OCC(C)C	absorbance	10 µM	27%
NC(=O)C[C@H](NC(=O)COc1cccc2ccccc12)C(=O)N[C@@H](Cc1ccccc1)[C@H](O)C(=O)N1CSC[C@H]1C(=O)N1CCCCC1	-	5 µM	>90%
CCOC(=O)[C@@]1(C)CC[C@]2(C)CC[C@]3(C)C(=CC(=O)[C@@H]4[C@@]5(C)CC/C(=N\OCc6ccc(F)c(F)c6)C(C)(C)[C@@H]5CC[C@]43C)[C@@H]2C1	substrate cleavage / fluorescence	1000 µg/mL	38.5%
COC1C[C@@H](C(=O)NC(C)(C)C)N(C(=O)[C@@H](O)[C@H](Cc2ccccc2)NC(=O)[C@H](CS(C)(=O)=O)NC(=O)COc2cccc3ccccc23)C1	-	0.05 µM	25.2%
CCCC1(CCC)OC(=O)C(C(c2cccc(NS(=O)(=O)c3cn(C)cn3)c2)C2CC2)=C1O	fluorescence	3.3 µM	100%
CC(C)(C)NC(=O)[C@@H]1CCCN1C(=O)[C@@H](O)[C@H](Cc1ccccc1)NC(=O)[C@H](CC(N)=O)NC(=O)OCc1ccccc1	-	5 µM	96.5%
CCOC(=O)[C@@]1(C)CC[C@]2(C)CC[C@]3(C)C(=CC(=O)[C@@H]4[C@@]5(C)CC/C(=N\OCc6ccccc6Br)C(C)(C)[C@@H]5CC[C@]43C)[C@@H]2C1	substrate cleavage / fluorescence	1000 µg/mL	34.3%
CCCCNC(=O)[C@H](CC(C)C)N1C[C@@H]2O[C@H](C(=O)N3CCCCC3)[C@@H](O2)C1=O	FRET	10 µM	0%
CCCC1(CCCc2ccccc2)OC(=O)C(C(c2ccccc2)C2CC2)=C1O	fluorescence	3.3 µM	100%
COC(=O)[C@@H](NC(=O)[C@H](Cc1ccccc1)NC(=O)C(=O)N[C@@H](Cc1ccccc1)C(=O)N[C@H](C(=O)OC)C(C)C)C(C)C	absorbance	10 µM	<10%
CN1CCN(C(=O)[C@@H]2O[C@@H]3CN(Cc4ccccc4)C(=O)[C@H]2O3)CC1	FRET	10 µM	82%

4 of the rows above, restated:

structure | method | dose | value
CN1CCN(C(=O)[C@@H]2O[C@@H]3CN(Cc4ccccc4)C(=O)[C@H]2O3)CC1 | FRET | 10 µM | 82%
CCCC1(CCCc2ccccc2)OC(=O)C(C(c2ccccc2)C2CC2)=C1O | fluorescence | 3.3 µM | 100%
CCC1(Cc2ccccc2)OC(=O)C(C(c2ccccc2)C2CC2)=C1O | fluorescence | 10 µM | 100%
COC1C[C@@H](C(=O)NC(C)(C)C)N(C(=O)[C@@H](O)[C@H](Cc2ccccc2)NC(=O)[C@H](CS(C)(=O)=O)NC(=O)COc2cccc3ccccc23)C1 | - | 0.05 µM | 25.2%